Reference: PubChem BioAssay AID624099 (ICCB-Longwood, 2012)

- Test: 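Knock-downs relieving repression by E2 of an HPV18 LCR luciferase reporter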 (primary screen)
- Cell system: human C33A cervical carcinoma cells (HPV-negative) stably expressing BPV1 E2 and an HPV18 LCR luciferase reporter
- Reagent: siRNA pool against human genes, 40 nM
- Timing: 72 h
- Measured: 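Per-well luciferase luminescence, z-scored on each plate against the plate mean and SD with control wells left out, then averaged across three replicate plates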
- Reading the numbers: mean z-score and z-score: higher = stronger reporter signal, weaker E2 silencing
- Rule for the call: 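Mean z ≥ 2 together with z ≥ 2 in two or more of the three replicates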
The whole screen tested about 21,000 reagents; shown is a part drawn at random. Of all reagents, 497 (2.4%) got an active call. 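Higher z means weaker E2 silencing; only reporter increases were scored, and knock-downs that hurt cell survival may mask genuine repressor factors.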 Reagents against one gene are numbered here.

The opening 2 records, to show the layout:
gene knocked down | pool no. | mean z-score | z-score, replicate A | z-score, replicate B | z-score, replicate C | Call
LOC389162 (retired record) | 1 | 0.88 | 1.03 | 0.9 | 0.7 | inactive
CNOT10 | 1 | 1.43 | 1.52 | 1.48 | 1.28 | inactive

The list itself, from the first entry:
gene knocked down | pool no. | mean z-score | z-score, replicate A | z-score, replicate B | z-score, replicate C | Call
LOC389162 (retired record) | 1 | 0.88 | 1.03 | 0.9 | 0.7 | inactive
CNOT10 | 1 | 1.43 | 1.52 | 1.48 | 1.28 | inactive
NRP1 | 1 | 1.14 | 0.93 | 1.4 | 1.1 | inactive
BET1 | 1 | 1.44 | 1.54 | 1.37 | 1.41 | inactive
RETREG2 | 1 | -1.32 | -1.16 | -1.4 | -1.39 | inactive
DUSP3 | 1 | 0.71 | 0.79 | 0.64 | 0.69 | inactive
MMP25 | 1 | -0.44 | -0.32 | -0.61 | -0.38 | inactive
MMP25 | 2 | 0.36 | 0.84 | 0.32 | -0.09 | inactive
FRRS1L | 1 | 0.82 | 0.7 | 0.84 | 0.93 | inactive
NXPE4 | 1 | -1.3 | -1.42 | -1.42 | -1.06 | inactive
PRKD1 | 1 | -0.47 | -0.97 | -0.35 | -0.1 | inactive
SLC2A14 | 1 | -0.75 | -0.67 | -0.6 | -1 | inactive
FNBP4 | 1 | -0.65 | -0.73 | -0.62 | -0.62 | inactive
ZNF599 | 1 | 0.19 | 0.54 | 0.36 | -0.34 | inactive
UGT3A1 | 1 | 0.16 | 0.55 | 0.16 | -0.24 | inactive
PSME3 | 1 | 0.42 | 0.59 | 0.28 | 0.39 | inactive
FCGR1A | 1 | -1.03 | -1.04 | -1.01 | -1.06 | inactive
C16orf82 | 1 | 0.14 | 0.59 | 0.23 | -0.4 | inactive
ACO2 | 1 | 0.72 | 0.6 | 0.84 | 0.73 | inactive
LOC388173 (retired record) | 1 | 0.14 | 0.14 | 0.11 | 0.17 | inactive
HSSUCCDH (retired record) | 1 | 1.85 | 1.64 | 1.88 | 2.02 | inactive
RGS13 | 1 | -0.57 | -0.49 | -0.56 | -0.67 | inactive
KLK3 | 1 | 0.15 | 0.08 | 0.38 | -0.01 | inactive
R3HDM2 | 1 | -1.04 | -1 | -1.05 | -1.06 | inactive
PLEKHG4 | 1 | 0.68 | 0.71 | 0.73 | 0.61 | inactive
CEBPA | 1 | -1.28 | -1 | -1.15 | -1.68 | inactive
TINAG | 1 | -0.92 | -1.25 | -0.93 | -0.59 | inactive
TVP23B | 1 | -0.29 | -0.38 | 0.02 | -0.5 | inactive
LOC389325 (retired record) | 1 | -0.13 | 0.2 | -0.09 | -0.49 | inactive
LINC01115 | 1 | -0.01 | -0.25 | 0.15 | 0.07 | inactive
AGL | 1 | 0.59 | 0.43 | 0.5 | 0.83 | inactive
LOC388107 (retired record) | 1 | 0.01 | 0.18 | 0.06 | -0.19 | inactive
HPR | 1 | 1.05 | 1.54 | 0.77 | 0.84 | inactive
BRWD1 | 1 | 0.07 | 0.16 | -0.01 | 0.06 | inactive
LOC389950 (retired record) | 1 | -0.7 | -0.37 | -0.78 | -0.96 | inactive
LRRC31 | 1 | 1.07 | 1.23 | 1.67 | 0.31 | inactive
FBXO44 | 1 | 2.26 | 2.58 | 2.26 | 1.94 | active
SYNGR2 | 1 | 1 | 0.9 | 1.09 | 1.01 | inactive
LOC388635 (retired record) | 1 | 0.69 | 0.79 | 0.84 | 0.43 | inactive
NR4A1 | 1 | 0.97 | 0.87 | 0.81 | 1.24 | inactive
FGF2 | 1 | 1.94 | 2.17 | 1.76 | 1.87 | inactive
FYCO1 | 1 | 0.42 | 0.65 | 0.19 | 0.43 | inactive
TAS2R10 | 1 | 1.05 | 0.93 | 1 | 1.22 | inactive
CREB3 | 1 | -0.49 | -0.54 | -0.59 | -0.33 | inactive
VGLL3 | 1 | -0.7 | -1 | -0.84 | -0.26 | inactive
PCSK7 | 1 | 0.65 | 0.63 | 0.75 | 0.57 | inactive
PMM1 | 1 | 2.87 | 2.47 | 3.26 | 2.87 | active
ITGA5 | 1 | -0.32 | -0.45 | -0.27 | -0.24 | inactive
KIDINS220 | 1 | -1.26 | -1.58 | -0.92 | -1.27 | inactive
TYW3 | 1 | -0.08 | -0.16 | -0.04 | -0.03 | inactive
REEP1 | 1 | 0.76 | 0.55 | 0.79 | 0.94 | inactive
LRRC37BP1 | 1 | -0.74 | -1.11 | -0.65 | -0.45 | inactive
SIRPG | 1 | -0.58 | -0.94 | -0.45 | -0.35 | inactive
MIER1 | 1 | -0.53 | -0.33 | -0.61 | -0.66 | inactive
IFT46 | 1 | 0.92 | 0.65 | 0.99 | 1.11 | inactive
CHGB | 1 | -0.27 | -0.37 | -0.26 | -0.18 | inactive
GLTP | 1 | 0.95 | 1 | 0.8 | 1.04 | inactive
